Sequence variants of PSTVd loop 6 after infection

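A pool of all variants was put on leaves of three Nicotiana benthamiana plants. Progeny were sequenced from the inoculated region (day 5), the margin of the inoculated leaf (day 10) and systemic leaves (day 12).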

Region: loop 6 of PSTVd (intermediate strain), upper and lower strand joined, each 5' to 3', the first 5 letters being the upper strand, closing pairs included. Wild type: UGACCGCGAG. Varied positions (N): UNNNCGNNNG.

Values are reads per thousand in the sample; higher means more abundant, 0 means not found.
Each site shows the three plants.
"Pool" is the share in the plasmid pool used as inoculum, on the same scale.
The inoculated region was read from the minus strand, the other sites from the plus strand.
With 36,220-57,551 reads a sample, very low values are single reads.

With UAAACGGAAG (pool 0.131) the assay gave inoculated region 0.834 / 0.808 / 0.959; leaf margin 0.0552 / 0.202 / 0.0696; systemic leaves 0 / 0.0808 / 0.0820.
With UAAACGGCUG (pool 0.196) the assay gave inoculated region 0.730 / 0.575 / 0.443; leaf margin 0 / 0.126 / 0.139; systemic leaves 0 / 0 / 0.
With UACGCGACAG (pool 0.131) the assay gave inoculated region 0.0869 / 0.108 / 0.111; leaf margin 0 / 0 / 0; systemic leaves 0 / 0 / 0.
With UACGCGUGCG (pool 0.209) the assay gave inoculated region 0.0869 / 0.0180 / 0.0369; leaf margin 0 / 0 / 0.0464; systemic leaves 0 / 0 / 0.
With UACUCGAGAG (pool 0.327) the assay gave inoculated region 0.139 / 0.126 / 0.0553; leaf margin 0 / 0 / 0.0232; systemic leaves 0 / 0 / 0.
With UACUCGGCUG (pool 0.183) the assay gave inoculated region 0.782 / 0.503 / 0.424; leaf margin 0.0828 / 0.0504 / 0.0464; systemic leaves 0 / 0 / 0.
With UACUCGUCCG (pool 0.118) the assay gave inoculated region 0.122 / 0.0539 / 0.0553; leaf margin 0 / 0 / 0.0232; systemic leaves 0 / 0 / 0.
With UAGACGAGUG (pool 0.196) the assay gave inoculated region 0.209 / 0.0359 / 0.0738; leaf margin 0.0276 / 0 / 0; systemic leaves 0 / 0 / 0.
With UAGCCGACUG (pool 0.275) the assay gave inoculated region 0.122 / 0.0539 / 0.111; leaf margin 0.0552 / 0.0757 / 0; systemic leaves 0 / 0 / 0.
With UAUACGUGAG (pool 0.327) the assay gave inoculated region 0.122 / 0.0539 / 0.0922; leaf margin 0.0276 / 0 / 0.0232; systemic leaves 0 / 0 / 0.
With UAUCCGAGCG (pool 0.209) the assay gave inoculated region 0.209 / 0.0539 / 0.0738; leaf margin 0 / 0 / 0; systemic leaves 0 / 0 / 0.
With UAUCCGGGCG (pool 0.196) the assay gave inoculated region 0.209 / 0.126 / 0.0553; leaf margin 0 / 0 / 0; systemic leaves 0 / 0 / 0.
With UAUGCGAAUG (pool 0.327) the assay gave inoculated region 0.0869 / 0.198 / 0.129; leaf margin 0 / 0.0252 / 0; systemic leaves 0 / 0 / 0.
With UAUGCGAGUG (pool 0.209) the assay gave inoculated region 0.0695 / 0.126 / 0.111; leaf margin 0.0276 / 0 / 0.0232; systemic leaves 0 / 0 / 0.
With UAUGCGUGUG (pool 0.157) the assay gave inoculated region 0.0695 / 0.0539 / 0.0922; leaf margin 0 / 0 / 0.0232; systemic leaves 0 / 0 / 0.
With UCAACGGCUG (pool 0.248) the assay gave inoculated region 0.243 / 0.0539 / 0.0738; leaf margin 0 / 0 / 0.0232; systemic leaves 0 / 0 / 0.
With UCAGCGCGAG (pool 0.222) the assay gave inoculated region 0.122 / 0.162 / 0.0922; leaf margin 0.110 / 0.0252 / 0.116; systemic leaves 0 / 0 / 0.164.
With UCGGCGUUCG (pool 0.248) the assay gave inoculated region 0.0521 / 0.0539 / 0.0184; leaf margin 0.110 / 0 / 0; systemic leaves 0 / 0 / 0.
With UGAUCGAGGG (pool 0.327) the assay gave inoculated region 0.0348 / 0.126 / 0.0553; leaf margin 0 / 0 / 0; systemic leaves 0 / 0 / 0.
With UGCACGGACG (pool 0.209) the assay gave inoculated region 0.104 / 0.108 / 0.0553; leaf margin 0 / 0 / 0; systemic leaves 0 / 0 / 0.
With UGCCCGCAGG (pool 0.118) the assay gave inoculated region 0.104 / 0.0898 / 0.0184; leaf margin 0.0552 / 0 / 0; systemic leaves 0 / 0 / 0.
With UGUCCGUGCG (pool 0.222) the assay gave inoculated region 0.0869 / 0.162 / 0.0553; leaf margin 0.0276 / 0 / 0; systemic leaves 0 / 0 / 0.
With UGUGCGACAG (pool 0.222) the assay gave inoculated region 0.104 / 0.0539 / 0.129; leaf margin 0.0276 / 0 / 0.0232; systemic leaves 0 / 0 / 0.
With UGUUCGAGUG (pool 0.183) the assay gave inoculated region 0.156 / 0.0719 / 0.0922; leaf margin 0.0276 / 0 / 0.0232; systemic leaves 0 / 0 / 0.
With UUAGCGUAGG (pool 0.314) the assay gave inoculated region 0.0521 / 0 / 0.129; leaf margin 0.0276 / 0 / 0; systemic leaves 0 / 0 / 0.
With UUAUCGAAAG (pool 0.222) the assay gave inoculated region 0.0869 / 0.0719 / 0.0369; leaf margin 0 / 0 / 0.0464; systemic leaves 0 / 0 / 0.
With UUCACGCUCG (pool 0.183) the assay gave inoculated region 0.122 / 0.108 / 0.0369; leaf margin 0.0276 / 0 / 0; systemic leaves 0 / 0 / 0.
With UUCGCGCUUG (pool 0.340) the assay gave inoculated region 0.0348 / 0.144 / 0.0738; leaf margin 0 / 0 / 0; systemic leaves 0 / 0 / 0.
With UUGACGCAUG (pool 0.170) the assay gave inoculated region 0.0521 / 0.0898 / 0.0553; leaf margin 0.0276 / 0 / 0.0232; systemic leaves 0 / 0 / 0.
With UUGACGGUUG (pool 0.183) the assay gave inoculated region 0.139 / 0.0359 / 0.0369; leaf margin 0 / 0 / 0; systemic leaves 0 / 0 / 0.
With UUGCCGUCGG (pool 0.405) the assay gave inoculated region 0.0695 / 0.108 / 0.0922; leaf margin 0 / 0.0252 / 0; systemic leaves 0 / 0 / 0.
With UUUACGUUAG (pool 0.235) the assay gave inoculated region 0.139 / 0.126 / 0.166; leaf margin 0 / 0 / 0.0464; systemic leaves 0 / 0 / 0.
With UUUGCGCGUG (pool 0.157) the assay gave inoculated region 0.0869 / 0.0539 / 0.0738; leaf margin 0 / 0 / 0.0464; systemic leaves 0 / 0 / 0.

The first 3 entries again:

sequence,pool,inoculated region,leaf margin,systemic leaves
UAAACGGAAG,0.131,0.834 / 0.808 / 0.959,0.0552 / 0.202 / 0.0696,0 / 0.0808 / 0.0820
UAAACGGCUG,0.196,0.730 / 0.575 / 0.443,0 / 0.126 / 0.139,0 / 0 / 0
UACGCGACAG,0.131,0.0869 / 0.108 / 0.111,0 / 0 / 0,0 / 0 / 0

Wild type was 20.7 per thousand in the pool and the most common sequence in every sample (inoculated region 195, 198, 203; leaf margin 629, 591, 734; systemic leaves 942, 870, 868).
The authors trace changes outside the varied positions to PCR and sequencing errors or to mutation in the plant; presence does not show that a variant is infectious alone.

Data from the supplement of Wu et al. 2024, doi:10.1371/journal.ppat.1012142.